Earlier results on 2 compounds are cited in paper PMC8952214 (Pharmaceuticals, 2022).

SMILES strings stand for the structures.

The series deals with A/RomaISS/02/08 H1N1 (Brisbane-like) oseltamivir-sensitive virus. Particulars: cited from earlier work.

Regarding `Cc1ccc(F)cc1NC(=O)COC(=O)c1ccc2ccccc2n1` [Compound 4], the “SI (selectivity index) = CC50/EC50, A/Roma H1N1” value was 4 × 10^3 a.

With `Cc1ccc(S(=O)(=O)NC(C)c2ccc(-n3ccnc3)cc2)cc1C` (centres unmarked) [Compound 1], the “SI (selectivity index) = CC50/EC50, A/Roma H1N1” value is 6 × 10^2 a.
